Results of unrelated studies side by side (data: NIAID ChemDB).

All rows: whole-cell or culture tests; organism: HIV-1

Two numbers with a dash give a range or band.

smiles | strain or isolate | read-out | cell line | changes | method | value
CCCc1c(OC#CC2CC2)c2cc(Cl)ccc2[nH]c1=O |  | EC50 | MT-4 |  |  | 0.058 µM
Nc1ccn([C@@H]2C=C[C@H](CO)O2)c(=O)n1 |  | EC50 | PBMC | RT-M184V | RT activity | 2.9 µM
Cc1ccc(C)n1-c1ccc(C(=O)O)c(O)c1 | SF2 X4R5 CLADE B | EC50 | MT-2 |  | p24 | 1.86 µM
O=C(COc1nsnc1-c1cccc2ccccc12)Nc1ccccn1 | IIIB | EC50 | MT-4 |  | MTT | >13 µM
C[C@@H]1CCO[C@H]2Cn3cc(C(=O)NCc4ccc(F)cc4F)c(=O)c(O)c3C(=O)N12 | LAI | EC50 | TZM-bl |  | luminescence | 0.00066 µM
CC1=CC[C@]2(C)C[C@H](O)[C@@]3(C)[C@H](C(C(C)C)=C[C@@H]3O)[C@H]2CC1 | LAV | EC50 | PBMC |  | RT activity | >100 µM
O=C1Nc2ccc(F)cc2C(C#Cc2ccsc2)(C(F)(F)F)O1 |  | EC50 |  |  |  | <0.00255 µM
O=C(COc1nsnc1-c1cccc2ccccc12)Nc1ccccc1Cl | IIIB | EC50 | MT-4 |  | MTT | >126 µM
Cc1cc2cn[nH]c2cc1NC(=O)COc1ccc(Cl)cc1C(=O)c1cccc(C#N)c1 | HXB2 | EC50 | HeLa + HELA CD4+ | RT-V106I Y181C | β-galactosidase | 0.011–0.1 µM
CS(=O)c1ccc(-c2nc(-c3ccc(F)cc3)c(-c3ccncc3)[nH]2)cc1 | 89.6 | EC50 | Mono Mac 6 |  | p24 | >1 µM
CCCc1c(OC2CCCC2)c2cc(OC(F)(F)F)ccc2[nH]c1=O |  | EC50 | MT-4 |  |  | 0.122 µM
Cc1cccc(-c2nnc3sc(CC45CC6CC(CC(C6)C4)C5)nn23)c1 | IIIB | EC50 | MT-4 |  | cytopathic effect / MTT | >10.9 µg/mL
Nc1nc(NC2CC2)c2ncn([C@H]3C=C[C@@H](CO)C3)c2n1 | Clinical isolate | EC50 | MT-2 | A62V/T69ins/V75I/A98G/K103S/G190A | recombinant virus assay | 1.496 µM
CC1=CC[C@]2(C)CC[C@@]3(C)[C@H](C(C(C)C)=C[C@@H]3O)[C@H]2CC1 | LAV | EC50 | PBMC |  | RT activity | >100 µM
O=S(=O)(O)c1ccc2c(c1)-c1nc-2nc2nc(nc3[n-]c(nc4[n-]c(n1)c1cc(S(=O)(=O)O)ccc41)c1cc(S(=O)(=O)O)ccc31)-c1cc(S(=O)(=O)O)ccc1-2.[Al+3] | IIIB | EC50 | MT-2 |  | cell fusion / fluorescence | <10 µg/mL
O=C1Nc2ccc(F)cc2C(C#Cc2cccnc2)(C(F)(F)F)O1 |  | EC50 |  |  |  | <0.00256 µM
O=C(O)c1cc(C(O)(c2ccc(O)c(C(=O)O)c2)c2ccc(O)c(C(=O)O)c2)ccc1O | IIIB | EC50 | MOLT-4/HUT-78 |  | syncytia | >100 µg/mL
Cc1cc(C#N)cc(C(=O)c2cc(Cl)ccc2OCC(=O)Nc2ccc(S(N)(=O)=O)cc2C)c1 | HXB2 | EC50 | HeLa + HELA CD4+ | RT-P225H | β-galactosidase | <0.01 µM
O=C(O)C1=CC(=C(c2ccc(O)c(C(=O)O)c2)c2ccc(O)c(C(=O)O)c2)C=C(Cc2ccc(O)c(C(=O)O)c2)C1=O | IIIB | EC50 | CEM |  | cytopathic effect / XTT | 0.5 µg/mL
COc1ccc(S(=O)(=O)O)cc1N=Nc1c(S(=O)(=O)O)cc2cc(Nc3nc(Nc4ccccc4)nc(Nc4cc(C)c(N=Nc5cc(S(=O)(=O)O)cc6cc(S(=O)(=O)O)cc(O)c56)cc4OC)n3)ccc2c1O | IIIB | EC50 | MT-2 |  | cell fusion / fluorescence | <10 µg/mL
O=C1Nc2ccc(F)cc2C(C#Cc2cccs2)(C(F)(F)F)O1 |  | EC90 |  | RT-K103N |  | 0.369 µM
O=C(COc1ccc(Cl)cc1C(=O)c1ccccc1)Nc1ccc2cn[nH]c2c1 | HXB2 | EC50 | HeLa + HELA CD4+ | RT-K103N | β-galactosidase | <0.01 µM
Cc1nnc(C(=O)NC(C)(C)c2nc(C(=O)NCc3ccc(F)cc3)c(O)c(=O)n2C)o1 | SF162 | EC50 | TZM-bl |  | luciferase / luminescence | 0.00427 µM
C#C[C@@]1(CO)C=C[C@H](n2cc(C)c(=O)[nH]c2=O)O1 | Clinical isolate | EC50 | MT-2 | K65R M184V | recombinant virus assay | 0.6137 µM
CCCc1c(OC2CCCC2)c2ccccc2[nH]c1=O | Nevirapine-resistant (RT Y181C) | EC50 | MT-4 | RT-Y181C |  | 1.85 µM
C=C(C)[C@@H]1CC[C@]2(C(=O)NCCCCCCCC(=O)N[C@@H](CC(C)C)[C@@H](O)CC(=O)O)CC[C@]3(C)[C@H](CC[C@@H]4[C@@]5(C)CC[C@H](O)C(C)(C)[C@@H]5CC[C@]43C)[C@@H]12 | IIIB | EC50 | CEM + CEM-4 |  | cytopathic effect / MTT | 0.058 µM
N#Cc1ccc(Cn2cc(COc3nsnc3-c3cccc4ccccc34)nn2)cc1 | IIIB | EC50 | MT-4 |  | MTT | >13 µM
Cc1cn([C@H]2C[C@H](N=[N+]=[N-])[C@@H](CO)O2)c(=O)[nH]c1=O | 89BZ167 | EC90 | PBMC |  | RT activity | 0.0097 µM
CCCc1c(SC2CCCC2)c2cc(F)ccc2[nH]c1=O | Nevirapine-resistant (RT Y181C) | EC50 | MT-4 | RT-Y181C |  | 0.263 µM
COc1cc(-c2ccc(Nc3ccccc3C(=O)O)c(OC)c2)ccc1Nc1ccccc1C(=O)O | BaL | EC50 | PBMC |  | RT activity | 2.94 µM
C[C@H]1CO[C@@H]2Cn3cc(C(=O)NCc4ccc(F)cc4F)c(=O)c(O)c3C(=O)N12 | LAI | EC50 | TZM-bl |  | luminescence | 0.00032 µM
Cc1cn([C@H]2C=C[C@@H](CO)O2)c(=O)[nH]c1=O | HXB2 | EC50 | MT-4 | RT-T215Y | cytopathic effect / MTT | 0.59 µM
Cc1cn([C@H]2C[C@H](N=[N+]=[N-])[C@@H](CO)O2)c(=O)[nH]c1=O | IIIB | EC50 | MT-2 |  | cell fusion / fluorescence | >10 µg/mL
O=C(O)c1cc(Cc2cc(C(c3ccc(O)c(C(=O)O)c3)c3ccc(O)c(C(=O)O)c3)cc(C(=O)O)c2O)ccc1O | IIIB | EC50 | MOLT-4/HUT-78 |  | syncytia | 1 µg/mL
COP(=O)(c1cc(C)cc(CCC#N)c1)c1c(C(N)=O)[nH]c2ccc(Cl)cc12 | IIIB | EC50 | MT-4 | Y181C | cytopathic effect | 0.0021 µM
Cc1nc2ccccc2nc1COC(=O)c1ccc(O)cc1O | 89BZ167 | EC90 | PBMC |  | RT activity | >100 µM
Fc1ccccc1-c1nnc2sc(CC34CC5CC(CC(C5)C3)C4)nn12 | IIIB | EC50 | MT-4 |  | cytopathic effect / MTT | >14.9 µg/mL
COc1ccc2c(c1)OCCC/C=C\CN(C[C@@H](O)[C@H](Cc1ccccc1)NC(=O)O[C@H]1CO[C@H]3OCC[C@H]31)S2(=O)=O | LAI | EC50 | MT-2 |  | MTT | 0.023 µM
CC(=O)OC[C@]12[C@H](OC(C)=O)[C@H](OC(C)=O)[C@@H]3[C@@H](OC(C)=O)[C@@]14O[C@@]3(C)COC(=O)c1cccnc1[C@@H](C)[C@H](C)C(=O)O[C@@H]([C@H](OC(=O)c1ccccc1)[C@@H]2OC(C)=O)C4(C)O |  | EC50 | H9 |  | p24 | 0.48 µg/mL
Brc1ccc(-c2nnc3sc(CC45CC6CC(CC(C6)C4)C5)nn23)cc1 | IIIB | EC50 | MT-4 |  | cytopathic effect / MTT | >125 µg/mL
Cc1ccc(C(=O)OCc2nc3ccccc3nc2C)cc1O | 89BZ167 | EC90 | PBMC |  | RT activity | >100 µM
Cc1cc(S(N)(=O)=O)ccc1NC(=O)COc1ccc(Cl)cc1C(=O)c1cc(F)cc(C(F)(F)F)c1 | HXB2 | EC50 | HeLa + HELA CD4+ | RT-Y181C | β-galactosidase | <0.01 µM
CC(=O)OC[C@@H]1OC(Oc2ccc(C(=O)/C=C/c3ccc(O)c(O)c3)c(O)c2O)[C@@H](O)[C@H](OC(C)=O)[C@H]1OC(C)=O | MN | EC50 | C8166 |  | cytopathic effect / XTT | 20 µM
CCCCCCCCCCCCCCCC(=O)OCCC[N+](C)(C)CCOCn1cc(C)c(=O)[nH]c1=O | IIIB | EC50 | CEM + CEM-SS |  | plaque count / syncytia | 6.8 µM
O=C1Nc2ccc(F)cc2C(C#Cc2ccco2)(C(F)(F)F)O1 |  | EC50 |  |  |  | <0.00258 µM
Cc1cc(OCCCS(N)(=O)=O)ccc1NC(=O)COc1ccc(Cl)cc1C(=O)c1cc(F)cc(C(F)(F)F)c1 | HXB2 | EC50 | HeLa + HELA CD4+ | RT-P236L | β-galactosidase | <0.01 µM
CCOc1c(OCC2CCC2)c2cc(F)ccc2[nH]c1=O | Nevirapine-resistant (RT Y181C) | EC50 | MT-4 | RT-Y181C |  | 1 µM
C=Cc1c(C)c2cc3[nH]c(cc4nc(cc5nc(cc1[nH]2)C(C)=C5CCC(=O)O)C(CCC(=O)O)=C4C)c(C)c3C=C | IIIB | EC50 | MT-2 |  | cell fusion / fluorescence | >10 µg/mL
CC(=O)OC[C@]12[C@H](OC(C)=O)[C@H](OC(=O)c3cccnc3)[C@@H]3[C@@H](OC(=O)c4ccoc4)[C@@]14O[C@@]3(C)COC(=O)c1cccnc1[C@@H](C)[C@H](C)C(=O)O[C@@H]([C@H](OC(C)=O)[C@@H]2OC(C)=O)C4(C)O |  | EC50 | H9 |  | p24 | 0.172 µg/mL
Nc1nnc(SCC(=O)Nc2ccccc2)s1 | IIIB | EC50 | MT-4 |  | p24 / ELISA / antigen | 20.83 µM
CC(=O)O[C@@H]1[C@@H]2[C@@H](OC(C)=O)[C@@]34O[C@@]2(C)COC(=O)c2cnccc2[C@@H](C)[C@@](C)(O)C(=O)O[C@@H]([C@H](OC(C)=O)[C@H](OC(C)=O)[C@@]3(COC(=O)c2ccoc2)[C@@H]1OC(C)=O)C4(C)O |  | EC50 | H9 |  | p24 | 0.13 µg/mL
Cc1cccc(C(=O)OCc2nc3ccccc3nc2C)c1O | BaL | EC50 | PBMC |  | RT activity | >100 µM
Cc1cc(S(N)(=O)=O)ccc1NC(=O)COc1ccc(Cl)cc1C(=O)c1cccc(C#N)c1 | HXB2 | EC50 | HeLa + HELA CD4+ | RT-Y188C | β-galactosidase | <0.01 µM
O=C(COc1nsnc1-c1cccc2ccccc12)Nc1ccccc1F | IIIB | EC50 | MT-4 |  | MTT | >126 µM
COC(=O)c1cccc(Cn2ccc3cc(F)c(-c4ccc5ccn(Cc6cccc(C(=O)O)c6)c5c4)cc32)c1 | IIIB | EC50 | MAGI-CCR5 |  | entry / luminescence | 0.4 µM
Clc1ccccc1-c1nnc2sc(CC34CC5CC(CC(C5)C3)C4)nn12 | IIIB | EC50 | MT-4 |  | cytopathic effect / MTT | >12.4 µg/mL
Nc1nnc(SCC(=O)Nc2cc(C(F)(F)F)cc(C(F)(F)F)c2)s1 | IIIB | EC50 | MT-4 |  | p24 / ELISA / antigen | 14.93 µM
Fc1cccc(-c2nnc3sc(CC45CC6CC(CC(C6)C4)C5)nn23)c1 | IIIB | EC50 | MT-4 |  | cytopathic effect / MTT | >125 µg/mL
COc1ccc(C(=O)OCc2nc3ccccc3nc2C)c(OC)c1OC | BaL | EC90 | PBMC |  | RT activity | >100 µM
O=C1Nc2ccc(Cl)cc2C(OCCC2CC2)(C(F)(F)F)O1 |  | EC90 |  | RT-K103N |  | 0.286 µM
Cc1cc(C)cc(C(=O)c2cc(Cl)ccc2OCC(=O)Nc2ccc(S(N)(=O)=O)cc2C)c1 | HXB2 | EC50 | HeLa + HELA CD4+ | RT-V106I Y181C | β-galactosidase | <0.01 µM
Fc1ccc(-c2nnc3sc(CC45CC6CC(CC(C6)C4)C5)nn23)cc1 | IIIB | EC50 | MT-4 |  | cytopathic effect / MTT | >65.33 µg/mL
Cc1cc(C#N)cc(C(=O)c2cc(Cl)ccc2OCC(=O)Nc2ccc(S(N)(=O)=O)nc2C)c1 | IIIB | EC50 | MT-4 |  | cytopathic effect / propidium iodide | <0.01 µM
COC(=O)c1ccc(NC(=O)COc2nsnc2-c2cccc3ccccc23)cc1 | IIIB | EC50 | MT-4 |  | MTT | >4.9 µM
CCC(C)C#COc1c(C(C)C)c(=O)[nH]c2ccc(F)cc12 |  | EC50 | MT-4 |  |  | 0.03 µM
Cc1cc(S(N)(=O)=O)ccc1NC(=O)COc1ccc(Cl)cc1C(=O)c1cc(F)cc(F)c1 | HXB2 | EC50 | HeLa + HELA CD4+ | RT-V108I Y181C | β-galactosidase | <0.01 µM
Cc1cn([C@H]2C=C[C@@H](CO)O2)c(=O)[nH]c1=O |  | EC50 | CEM + CEM/O |  | cytopathic effect | 0.2 µM
O=C(CSc1nc2ccccc2[nH]1)Nc1cc(C(F)(F)F)cc(C(F)(F)F)c1 | IIIB | EC50 | MT-4 |  | p24 / ELISA / antigen | 2.2 µM
COc1cccc(CN(C)c2cccc(-c3ccc4ccn(Cc5cccc(C(=O)O)c5)c4c3)c2)c1 | BaL | EC50 | MAGI-CCR5 |  | entry / luminescence | 1.6 µM

8 of the rows above, restated:

O=C1Nc2ccc(F)cc2C(C#Cc2cccnc2)(C(F)(F)F)O1 ; read-out: EC50 ; value: <0.00256 µM
O=C(COc1ccc(Cl)cc1C(=O)c1ccccc1)Nc1ccc2cn[nH]c2c1 ; strain or isolate: HXB2 ; read-out: EC50 ; cell line: HeLa + HELA CD4+ ; changes: RT-K103N ; method: β-galactosidase ; value: <0.01 µM
O=C1Nc2ccc(F)cc2C(C#Cc2ccsc2)(C(F)(F)F)O1 ; read-out: EC50 ; value: <0.00255 µM
Cc1cn([C@H]2C=C[C@@H](CO)O2)c(=O)[nH]c1=O ; read-out: EC50 ; cell line: CEM + CEM/O ; method: cytopathic effect ; value: 0.2 µM
C[C@@H]1CCO[C@H]2Cn3cc(C(=O)NCc4ccc(F)cc4F)c(=O)c(O)c3C(=O)N12 ; strain or isolate: LAI ; read-out: EC50 ; cell line: TZM-bl ; method: luminescence ; value: 0.00066 µM
O=C1Nc2ccc(F)cc2C(C#Cc2ccco2)(C(F)(F)F)O1 ; read-out: EC50 ; value: <0.00258 µM
Cc1cc(OCCCS(N)(=O)=O)ccc1NC(=O)COc1ccc(Cl)cc1C(=O)c1cc(F)cc(C(F)(F)F)c1 ; strain or isolate: HXB2 ; read-out: EC50 ; cell line: HeLa + HELA CD4+ ; changes: RT-P236L ; method: β-galactosidase ; value: <0.01 µM
Cc1nnc(C(=O)NC(C)(C)c2nc(C(=O)NCc3ccc(F)cc3)c(O)c(=O)n2C)o1 ; strain or isolate: SF162 ; read-out: EC50 ; cell line: TZM-bl ; method: luciferase / luminescence ; value: 0.00427 µM

Lines come from different laboratories, so protocols vary. ECn is the concentration giving n% inhibition of infection, replication or growth. An empty or dashed field is not shown.